Measurements reported in article PMC6089501 (Journal of Medicinal Chemistry, 2018).
Like-named read-outs stand apart in the source and are kept apart here.

System: HepG2
Assay: cells
Details: Homo sapiens

NC(=O)c1sc(N2CCOCC2)cc1OCCc1ccc(OC(F)(F)F)cc1 [Compound 37, 5-Morpholino-3-[2-[4-(trifluoromethoxy)phenyl]ethoxy]thiophene-2-carboxamide]
IC50 (HepG2, read-out: HepG2-Gal IC50): > 100 µM | IC50 (HepG2, read-out: HepG2-Glu IC50): > 100 µM
